## Percent effect of library compounds

Data taken from ChEMBL document CHEMBL3988442, “University of Dundee, Small-Polar-MMV Screening Library” (2021).

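Phenotypic screen: M. tuberculosis growth, glucose 7H9 medium, 3 days; the read-out is not stated. Compounds at 50 µM. Higher reads as more growth inhibition (inferred: compounds with an IC50 in retests scored well above the rest). Of about 69,000 compounds tested this way, about 760 (1.1%) reached 50% or more in at least one test.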

The filed quantity is “Percent Effect” (%). The record does not define 0% and 100%; most values in the screen are far below 50% and negative numbers occur (in some assays of this library far below -100). The entries come from a sample that favours strong results. Two or more numbers in one place are separate tests of the same structure; such repeats can differ widely.

| Compound | effect |
|---|---|
| `Cc1nn(CC(O)CN2CCc3ccccc3C2)c(=O)c2ccccc12` (centres undefined) | 16.03% |
| `CCCc1nc(N2CCN(CC)CC2)c2c(n1)c(C)nn2CC` | -23.47% |
| `CN(C)CCNc1ccc(-c2nc(COc3ccccc3)no2)cn1` | 29.55% |
| `CCc1cc(C(=O)N2CCC(c3cc4ncccc4cn3)CC2)on1` | 0.4906% |
| `COc1ccc(NC(=O)Cn2nc(C)c(C)cc2=O)cc1` | 13.1% |
| `NC(=O)Cn1c(SCc2noc(-c3ccsc3)n2)nnc1C1CC1` | 8.609% and -2.494% |
| `CC(=O)NCCCOc1c(C)cccc1Cl` | 11.23% |
| `N#Cc1cn[nH]c1NCc1cc(I)cc(I)c1O` | 33.95% |
| `Cc1csc(N2CCN(C(=O)Cc3ccc(C)s3)CC2)n1` | -22.23% |
| `C=C/C=c1\c(=C/C)oc2c(NCc3ccccc3)nc(CC)nc12` | 69.24% |
| `CC(O)(CNc1ccccn1)c1ccccc1` (centres undefined) | -37.33% |
| `Cc1sc(Br)cc1S(=O)(=O)NCCCN.Cl` | 35.38% |
| `COc1ccc(-c2ccccc2CN)c(OC)c1` | 2.304% and 5.628% |
| `CCOc1ccnc(N2CCCN(c3nc(C4CC4)ns3)CC2)n1` | 21.09% |
| `NC(=O)c1cc(C2CCCN(C(=O)CCc3ccncc3)C2)n[nH]1` (centres undefined) | 65.05% |
| `Cn1cncc1CN1CCCC1c1cncc(Oc2ccc(F)cc2)n1` (centres undefined) | 62.76% |
| `Cl.O=C1CC2(CCNCC2)C(=O)N1Cc1ccc(F)cc1` | -8.628% |
| `Cc1ccc2c(c1)CCC21CCN(CCO)CC1` | 6.449% and 1.678% |
| `CN(C)c1ccc(CNC(=O)c2ccc(Cl)cc2F)cc1` | 33.35% and 53.5% |
| `CC(C)c1nc(S(=O)(=O)N2CCSc3ccccc32)c[nH]1` | -5.226% and -2.149% |
| `CCc1csc(C2CCCN(C(=O)c3c[nH]c(C)n3)C2)n1` (centres undefined) | 5.304% |
| `CN(C1CCCCC1)S(=O)(=O)N1CCN(Cc2ccon2)CC1` | -12.19% and 9.35% |
| `Cc1nc(CNCC2CCCN2c2cccnn2)oc1C` (centres undefined) | -27.24% |
| `O=C(c1cc(Br)ccc1Cl)N1CCN(Cc2ccco2)CC1` | 6.413% |
| `Cc1nnc(NCc2ccc(Br)cc2)o1` | -1.768% and 3.046% |
| `Cc1ccc(C(=O)NCCSCc2cccs2)cn1` | -12.48% |
| `CCS(=O)(=O)N1CCC(NC(=O)c2cc(C(C)C)ccc2O)CC1` | 34.44% |
| `CCc1ccc2nc(-c3cnn(C)c3)cc(C(=O)N3CCOCC3)c2c1` | -10.4% |
| `CC(NCc1ccc(OCC(N)=O)cc1)c1ccc(Cl)cc1.Cl` (centres undefined) | -11.25% |
| `CS(=O)(=O)NC1CCN(C(=O)c2cc3ccccc3s2)C1` (centres undefined) | -1.393% and 3.717% |
| `CCNC(=O)CCC(=O)NC(C)Cc1ccccc1Br` (centres undefined) | 35.94% |
| `CCCn1nc(-c2nc(COC)no2)ccc1=O` | -6.308% |
| `Cl.NC1CCc2nc(-c3ccncc3)nc(Nc3cccc(F)c3)c2C1` (centres undefined) | 44.92% |
| `OCc1ccc(CN(CCCn2ccnc2)Cc2ccncc2)o1` | 6.664% |
| `Cc1cc(NC(C)c2csc(C)n2)n2nc(C)c(C)c2n1` (centres undefined) | 8.472% |
| `Cc1ncc(CN2CCCC(O)(c3ccc(F)cc3)CC2)n1C.O=C(O)CC(O)(CC(=O)O)C(=O)O` (centres undefined) | 14.75% |
| `COc1cccc(-c2cnnc(N(C)CCC3CCCCO3)n2)c1` (centres undefined) | 12.24% |
| `Cc1nc(CN(Cc2ccncc2)C2CCN(C)CC2)cs1` | -7.284% and -49.67% |
| `CN(Cc1ccccc1)CC1(O)CCCN(CCC2CCCCC2)C1=O` (centres undefined) | 90.7% |
| `CC(C)c1cc(=O)[nH]c(-n2nc(C3CC3)cc2N)n1` | 93.45% |
| `NCc1n[nH]c(-c2ccc(F)cc2)n1` | -7.7% and -2.696% |
| `NC(=O)CSc1ccccc1NCc1nc(C2CC2)no1` | -7.52% and -32.24% |
| `CN(CC(N)=O)C(=O)C1Cc2cc(Cl)ccc2O1` (centres undefined) | -1.128% and -39.79% |
| `CCN1C(=O)C2(CCOCC2)c2cc(NC(=O)c3cc(C)n[nH]3)ccc21` | -9.854% and -0.8897% |
| `Cc1csc(C2CCCN(C(=O)c3cc(Cl)c[nH]3)C2)n1` (centres undefined) | 32.11% |
| `Cc1cccc(NC(=O)C(C)Oc2ccc3c(c2)OCO3)n1` (centres undefined) | 54.91% |
| `CCc1c(C(=O)NCC(=O)OCC2CC2)cnn1-c1ccc(C)cc1` | 71.1% |
| `Nc1ncccc1C(=O)NCc1cccc(Cl)c1` | -19.97% |
| `O=C(CN(Cc1ccco1)C1CC1)Nc1ccc(Br)cn1` | 56.43% |
| `c1ccc(CCCN2CCN(c3ccc4nncn4n3)CC2)cc1` | 16.02% |
| `CC(C)C[C@H](N)c1nnc(SCC(N)=O)o1.Cl` | -1.688% and -22.77% |
| `CCCNC(=O)c1ccc(NC(=O)c2cccc(OCC)c2)cc1` | 50.51% |
| `CN1CCN(C(=O)C2(S(C)(=O)=O)CCCC2)Cc2ccccc21` | -1.224% and 3.877% |
| `COc1ccc(C(N)=O)cc1NCc1ncc(C(C)(C)C)o1` | -42.78% |
| `Cc1cc(NC(=O)c2ccc(C)c(F)c2)[nH]n1` | -8.067% |
| `Cc1cc(C)n(C2CCCN(C(=O)Cc3cccs3)C2)n1` (centres undefined) | 50.81% |
| `Cc1nc(C2CCCN2C(=O)c2cc3c(s2)CCC3)no1` (centres undefined) | 1.535% and -37.99% |
| `COc1ccc(C(O)CNC(=O)NCc2csc(C)n2)cc1` (centres undefined) | -6.249% |
| `COc1ccc(-n2nnc(C(=O)NCC3CCCCC3)n2)cc1` | 9.636% and 17.09% |
| `CCCc1cc(C(=O)NC(C)c2ccccc2)n(C)n1` (centres undefined) | -25.96% |
| `CCc1c(C)sc(NC(=O)CN2CCN(CC)CC2)c1C(=O)OC` | 73.38% and 81.48% |
| `Cc1ccc(-c2cc(N)c(=O)n(C(C)C(=O)NC(C)C)n2)o1` (centres undefined) | -4.604% |
| `CCCC(=O)N(CCCN1CCOCC1)c1nc2c(C)c(C)ccc2s1.Cl` | 31.05% and 39.74% |
| `FC(F)Oc1ccc(NCc2nc(C3CC3)no2)c(OC(F)F)c1` | 36.04% and 26.67% |
| `CCc1ccc(C(C)NC(=O)c2ccc(CS(C)(=O)=O)o2)cc1` (centres undefined) | 31.4% and 28.26% |
| `FC(F)Sc1ccc(NCc2nnc(C3CC3)o2)cc1` | 54.86% |
| `CCNC(=O)NC(C)(C)C(=O)NCCc1csc2ccccc12` | 12.68% |
| `O=C(c1ccc(-n2cccn2)nc1)N1CCCN(c2cccnn2)CC1` | -6.736% |
| `Cc1cc(C)n(CCN2CCN(C(=O)c3cc4ccccc4o3)CC2)n1` | 11.76% and 23.21% |
| `Cc1ccc(-c2nc(CN3CCOC(Cn4cncn4)C3)cs2)o1` (centres undefined) | -4.397% |
| `OCC(O)CSCc1cc(Cl)ccc1Cl` (centres undefined) | 32.63% |
| `CCc1ccc(NC(=O)c2ncc(C(N)=O)cc2Cl)cc1F` | 15.26% |
| `CCc1ccccc1NC(=O)CCc1cnn(C)c1` | -16.53% |
| `CN1CCC(CNC(=O)c2ccc(O)nc2)c2ccccc21` (centres undefined) | -4.041% and 1.481% |
| `NCCc1n[nH]c(=O)n1-c1cccc2ccccc12` | -40.67% |
| `Cc1nc(CCNc2ccc(-c3nc(C)c(C)c(=O)[nH]3)cn2)cs1` | 27.25% |
| `Cc1nc(N)nc(N2CCOc3ccc(CO)cc3C2)c1C` | 5.613% and 23.45% |

4 of the entries, repeated:

For Cc1cc(NC(=O)c2ccc(C)c(F)c2)[nH]n1 the result was -8.067%.
For CS(=O)(=O)NC1CCN(C(=O)c2cc3ccccc3s2)C1 (centres undefined) the result was -1.393% and 3.717%.
For CC(C)C[C@H](N)c1nnc(SCC(N)=O)o1.Cl the result was -1.688% and -22.77%.
For NC(=O)CSc1ccccc1NCc1nc(C2CC2)no1 the result was -7.52% and -32.24%.